The list shows a part of the results, in another mix than the full data. Some salts or complexes appear as unconnected parts, following the source record. Calls of active or inactive are those of the source. Rule as the data show it: active = inhibition above about 33%; inactive = the rest.

The chains behind the UniProt entries cited, without tags or fusion partners.
UniProt P03206, whole entry: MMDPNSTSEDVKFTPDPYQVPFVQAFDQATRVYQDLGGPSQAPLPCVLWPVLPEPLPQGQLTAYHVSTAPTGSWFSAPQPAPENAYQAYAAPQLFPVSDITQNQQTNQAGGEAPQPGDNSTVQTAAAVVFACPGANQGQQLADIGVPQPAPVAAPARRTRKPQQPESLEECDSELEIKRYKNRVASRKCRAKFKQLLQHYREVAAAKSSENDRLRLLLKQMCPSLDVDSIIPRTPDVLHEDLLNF

Usually inhibition stands for the change of the read-out against control, counted positive when it falls.

For the experiment, the target named is Lytic switch protein BZLF1 (Epstein-Barr virus (strain B95-8)) (UniProt P03206). Briefly: Zta-DNA interaction blockers, Epstein-Barr virus – biochemical, fluorescence polarization, single concentration, counter-screen for EBNA-1 inhibitor project, primary screen (AID 2234). The following applies: ZTA-DNA binding, at 11 µM, active compounds read high.
Take `Cc1ccc(C)c(NP(C)(=O)Oc2ccccc2)c1` (stereo not drawn): the inhibition is inactive: 5.87%.

Regarding `CP(=O)(Nc1cccc(Br)c1)Oc1ccccc1` (stereo not drawn), the inhibition was inactive: -1.2%.

With `Cc1cc(C)cc(OP(C)(=O)Nc2ccccn2)c1` (stereo not drawn), the inhibition was inactive: 12.3%.

With `CCOC(=O)c1ccc(NP(C)(=O)Oc2cc(C)cc(C)c2)cc1` (stereo not drawn), the inhibition is inactive: -1.35%.

`Cc1cc(C)cc(OP(C)(=O)Nc2ccc(C)cc2C)c1` (stereo not drawn): the inhibition was inactive: 1.13%.

Take `COc1ccccc1OP(C)(=O)Nc1cccc(Br)c1` (stereo not drawn): the inhibition is inactive: 3.24%.

As to `CC1=NCCc2c1[nH]c1ccccc21.O=[N+]([O-])c1cc([N+](=O)[O-])c(O)c([N+](=O)[O-])c1`, the inhibition was inactive: -7.97%.

Turning to `O=C(O)c1cccc(Nc2c([N+](=O)[O-])cc([N+](=O)[O-])cc2[N+](=O)[O-])c1`, the inhibition was inactive: 3.24%.

As for `CP(=O)(Nc1ccc(SC(F)(F)F)cc1)Oc1ccccc1` (stereo not drawn), the inhibition is inactive: -8.75%.

For `CCCOc1ccc(NP(C)(=O)Oc2ccc(Cl)cc2)cc1` (stereo not drawn), the inhibition was inactive: 1.7%.

On to `COc1ccccc1OP(C)(=O)Nc1c(C)cccc1C` (stereo not drawn), for which the inhibition was inactive: 17.1%.

Regarding `CN1CCCCC1COC(=O)C1(O)c2ccccc2CCc2ccccc21` (stereo not drawn), the inhibition is inactive: -1.46%.

`O=[N+]([O-])c1cc([N+](=O)[O-])c(Nc2nnnn2CCO)c([N+](=O)[O-])c1`: the inhibition is inactive: -3.91%.

In the case of `CC1=C2N=C(C=C3N=C(C(C)=C4[N-][C@@](C)([C@@H]5N=C1[C@](C)(CCC(=O)NC[C@@H](C)OP(=O)([O-])O[C@H]1[C@@H](O)[C@@H](n6cnc7cc(C)c(C)cc76)O[C@@H]1CO)[C@H]5CC(N)=O)[C@@](C)(CC(N)=O)[C@@H]4CCC(N)=O)[C@@](C)(CC(N)=O)[C@@H]3CCC(N)=O)C(C)(C)[C@@H]2CCC(N)=O.[C-]#N.[Co+3]`, the inhibition was inactive: 1.06%.

As to `CCOC(=O)C(CC)C1=NC(C)(C)Cc2ccccc21.O=[N+]([O-])c1cc([N+](=O)[O-])c(O)c([N+](=O)[O-])c1` (stereo not drawn), the inhibition is inactive: -2.23%.

With `Cc1nc2ccc3ccccc3c2s1.O=[N+]([O-])c1cc([N+](=O)[O-])c(O)c([N+](=O)[O-])c1`, the inhibition was inactive: 1.66%.

Consider `O=[N+]([O-])c1cc([N+](=O)[O-])c(-c2cnn(-c3ccccc3)c2)c([N+](=O)[O-])c1`, for which the inhibition is inactive: 3.59%.

As to `O=[N+]([O-])c1cc([N+](=O)[O-])c(-n2nnc3ccccc32)c([N+](=O)[O-])c1`, the inhibition was inactive: 18.6%.

Consider `CP(=O)(Nc1ccccn1)Oc1ccc(Cl)cc1` (stereo not drawn), for which the inhibition was inactive: -3.95%.

On to `CCOC(=O)c1ccc(NP(C)(=O)Oc2ccc(OC)cc2)cc1` (stereo not drawn), for which the inhibition was inactive: -11.6%.

With `O=[N+]([O-])c1cc([N+](=O)[O-])c(O)c([N+](=O)[O-])c1.c1ccc(Oc2ccncc2)cc1`, the inhibition was inactive: 6.77%.

As to `CCOP(C)(=S)SCC(=O)NC(C)C(=O)O` (stereo not drawn), the inhibition is inactive: -1.78%.

`CCc1ccc(OP(C)(=O)N2CCN(c3ccc([N+](=O)[O-])cc3)CC2)cc1` (stereo not drawn): the inhibition was inactive: -15.2%.

As for `CP(=O)(NC(=O)Nc1ccccc1)Oc1ccccc1` (stereo not drawn), the inhibition was inactive: -4.07%.

Take `Cc1cc(C)cc(OP(C)(=O)Nc2ccc(SC(F)(F)F)cc2)c1` (stereo not drawn): the inhibition was inactive: 4.32%.

`Cc1cccc(C)c1OP(C)(=O)Nc1ccc(SC(F)(F)F)cc1` (stereo not drawn): the inhibition is inactive: -6.62%.

`CP(=O)(Nc1ccc(SC(F)(F)F)cc1)Oc1ccc(Cl)cc1` (stereo not drawn): the inhibition is inactive: 12.9%.

In the case of `CP(=O)(Oc1ccccc1)OC(c1ccccc1)C(F)(F)F` (stereo not drawn), the inhibition was inactive: -16.8%.

Consider `CP(=O)(Nc1ccccc1Br)Oc1ccccc1` (stereo not drawn), for which the inhibition was inactive: 4.54%.

As for `COc1ccccc1OP(C)(=O)Nc1ccccc1` (stereo not drawn), the inhibition was inactive: -3.13%.

As for `CP(=S)(Nn1cnnc1)Oc1ccccc1` (stereo not drawn), the inhibition is inactive: 11.7%.

As to `Cc1cc(C)cc(OP(C)(N)=O)c1` (stereo not drawn), the inhibition is inactive: -9.89%.

For the molecule `COc1ccccc1OP(C)(=O)Nc1cc(Cl)ccc1C` (stereo not drawn), the inhibition was inactive: 7.51%.

With `COc1ccc(OP(C)(=O)Nc2cccc(F)c2)cc1` (stereo not drawn), the inhibition was inactive: -5.01%.

Turning to `COc1ccccc1OP(C)(=O)Nc1ccc(C)cc1` (stereo not drawn), the inhibition was inactive: 14.2%.

On to `Cc1ccc(NP(C)(=O)Oc2ccccc2)c(C)c1` (stereo not drawn), for which the inhibition was inactive: 0.22%.

As to `CCOC(=O)c1ccc(NP(C)(=O)Oc2ccccc2)cc1` (stereo not drawn), the inhibition was inactive: -6.33%.

Regarding `O=[N+]([O-])c1ccc2c(c1)C=Nc1ccccc1O2`, the inhibition was inactive: 22.4%.

For the molecule `CC(C)(C)c1ccc(OP(C)(=O)Nc2ccc(SC(F)(F)F)cc2)cc1` (stereo not drawn), the inhibition is inactive: -15.1%.

Take `Cc1cccc(C)c1OP(C)(N)=O` (stereo not drawn): the inhibition is inactive: -2%.

Regarding `O=[N+]([O-])c1cc([N+](=O)[O-])c(Nc2cccnc2)c([N+](=O)[O-])c1`, the inhibition was inactive: -13.9%.

In the case of `CCN(CC)CCCOC(=O)C(O)(c1ccccc1)c1ccccc1`, the inhibition was inactive: -8.73%.

`CP(=O)(Nc1ccccn1)Oc1ccccc1` (stereo not drawn): the inhibition is inactive: 15.7%.

With `COc1ccccc1OP(C)(=O)Nc1ccc(C)cc1C` (stereo not drawn), the inhibition was inactive: -4.76%.

Take `CCc1ccc(OP(C)(=O)O)cc1`: the inhibition was inactive: -5.29%.

Turning to `O=[N+]([O-])c1cc([N+](=O)[O-])c(Nc2ccccn2)c([N+](=O)[O-])c1`, the inhibition is inactive: 4.35%.

As to `Cc1c(NP(C)(=O)Oc2ccc(C(C)C)cc2)c(=O)n(-c2ccccc2)n1C` (stereo not drawn), the inhibition was inactive: 10.3%.

For `COc1ccc(OP(C)(=O)Nc2ccccn2)cc1` (stereo not drawn), the inhibition is inactive: -4.44%.

For `CN(C)CCOC(=O)C(O)(c1ccccc1)C1CCCC1` (stereo not drawn), the inhibition was inactive: -0.92%.

With `COc1ccccc1OP(C)(=O)Nc1ccc(Br)cc1` (stereo not drawn), the inhibition is inactive: 6.75%.

In the case of `CP(=O)(OCCOc1ccccc1)OCCOc1ccccc1`, the inhibition is inactive: -9.74%.

For the molecule `CP(=O)(Nc1ccc(Cl)cc1Cl)Oc1ccccc1` (stereo not drawn), the inhibition was inactive: 12.6%.

With `Cc1nc2ccc3ccccc3c2o1.O=[N+]([O-])c1cc([N+](=O)[O-])c(O)c([N+](=O)[O-])c1`, the inhibition was inactive: 13.2%.

Regarding `COc1ccccc1OP(C)(=O)Nc1ccc(C)c(C)c1` (stereo not drawn), the inhibition was inactive: 8.79%.

For the molecule `COc1ccc(OP(C)(=O)Nc2ccccc2Br)cc1` (stereo not drawn), the inhibition was inactive: 12.4%.

`Cc1cc(C)cc(OP(C)(=O)Nc2cccc(C(F)(F)F)c2)c1` (stereo not drawn): the inhibition was inactive: 4.61%.

With `CCOC(=O)c1ccc(NP(C)(=O)Oc2ccc(Cl)cc2)cc1` (stereo not drawn), the inhibition is inactive: 1.1%.

Take `CP(=O)(OC12CC3CC(CC(C3)C1)C2)OC12CC3CC(CC(C3)C1)C2`: the inhibition was inactive: 5.65%.

With `Nc1ccc2c(ccc3cccnc32)n1.O=[N+]([O-])c1cc([N+](=O)[O-])c(O)c([N+](=O)[O-])c1`, the inhibition is inactive: -8.36%.

Turning to `CN(C)C(=O)c1c([N+](=O)[O-])cc([N+](=O)[O-])cc1[N+](=O)[O-]`, the inhibition was inactive: 4.1%.

Regarding `CC(C)(C)c1ccc(OP(C)(=O)O)cc1`, the inhibition was inactive: -5.92%.

As for `COc1ccccc1OP(C)(=O)Nc1ccccc1Br` (stereo not drawn), the inhibition is inactive: -17.8%.

As to `CP(=O)(Nc1ccc(Cl)cc1)Oc1ccc(F)cc1` (stereo not drawn), the inhibition is inactive: -3.39%.

`COc1ccccc1OP(C)(=O)Nc1c(C)n(C)n(-c2ccccc2)c1=O` (stereo not drawn): the inhibition is inactive: -26.1%.

For the molecule `O=C(OCCCN1CCCC1)C(O)(c1ccccc1)C1CCCCC1` (stereo not drawn), the inhibition was inactive: -16.9%.

`CP(=O)(Oc1ccccc1)N1CCOC1=O` (stereo not drawn): the inhibition is inactive: -15.1%.

Consider `CCc1ccc(OP(C)(=O)Nc2cccnc2)cc1` (stereo not drawn), for which the inhibition was inactive: -7.63%.

Take `CCN(CC)CC(O)COC(=O)C(O)(c1ccccc1)C1CCCCC1` (stereo not drawn): the inhibition is inactive: -10.7%.

In the case of `COc1ccc(OP(C)(=O)Nc2ccc(Br)cc2)cc1` (stereo not drawn), the inhibition was inactive: -12.3%.

Turning to `Cc1ccccc1NP(C)(=O)Nc1ccccc1C`, the inhibition is inactive: 17.2%.

Turning to `CP(=O)(Nc1ccc2c(c1)OCCO2)Oc1ccccc1` (stereo not drawn), the inhibition is inactive: -13.6%.

On to `CCOP(C)(=S)SCC(=O)NC(C)(CC)C(=O)O` (stereo not drawn), for which the inhibition is inactive: -3.48%.

With `CP(=O)(Nc1ccc(SC(F)(F)F)cc1)Oc1ccc(F)cc1` (stereo not drawn), the inhibition was inactive: -19.4%.

`O=[N+]([O-])c1cc([N+](=O)[O-])c(NCC2CCS(=O)(=O)C2)c([N+](=O)[O-])c1` (stereo not drawn): the inhibition is inactive: -15.1%.

As for `CN(C)CCOC(=O)C(O)(c1ccccc1)C1CCCCC1` (stereo not drawn), the inhibition was inactive: -10.8%.

In the case of `COc1ccc(NP(C)(=O)Oc2ccccc2OC)cc1` (stereo not drawn), the inhibition was inactive: -3.35%.

With `COc1ccc(OP(C)(=O)Nc2cccc(Br)c2)cc1` (stereo not drawn), the inhibition was inactive: -9.03%.

In the case of `CP(=O)(Nc1ccccc1)Oc1ccc(F)cc1` (stereo not drawn), the inhibition was inactive: 3.88%.

Regarding `CCCCCOc1ccc(NP(C)(=O)Oc2ccc(Cl)cc2Cl)cc1` (stereo not drawn), the inhibition was inactive: 0.42%.

For the molecule `O=[N+]([O-])c1cc([N+](=O)[O-])c(OC2CCCCC2O)c([N+](=O)[O-])c1` (stereo not drawn), the inhibition is inactive: -0.29%.

For `CCN(CC)CCCOC(=O)C(O)(c1ccccc1)C1CCCCC1` (stereo not drawn), the inhibition is inactive: -7.63%.

With `CCOC(=O)c1ccc(NP(C)(=O)Oc2ccc(F)cc2)cc1` (stereo not drawn), the inhibition is inactive: -12.4%.

Consider `COc1ccc(OP(C)(=O)Nc2ccc(SC(F)(F)F)cc2)cc1` (stereo not drawn), for which the inhibition was inactive: 14.3%.

For `COc1ccc2c(c1O)-c1c(O)c(OC)cc3c1[C@H](C2)[N+](C)(C)CC3.O=[N+]([O-])c1cc([N+](=O)[O-])c([O-])c([N+](=O)[O-])c1[O-]`, the inhibition was inactive: 7.59%.

Consider `O=C(OC1CN2CCC1CC2)c1ccc([N+](=O)[O-])cc1` (stereo not drawn), for which the inhibition was inactive: 0.27%.

Regarding `O=C(OCCN1CCN(CCOCc2ccccc2)CC1)C(O)(c1ccccc1)c1ccccc1`, the inhibition is inactive: -1.59%.

As for `CP(=O)(Nc1ccccc1F)Oc1ccccc1` (stereo not drawn), the inhibition was inactive: -1.31%.

As for `CC(C)c1ccc(OP(C)(=O)Nc2ccc(SC(F)(F)F)cc2)cc1` (stereo not drawn), the inhibition was inactive: 5.79%.
